Values from PubChem BioAssay AID1259414 (Drosophila RNAi Screening Center, 2018)

- Purpose: 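Fly genes that alter Wolbachia amount inside host cells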 (primary screen)
- System: Drosophila JW18 cells infected with Wolbachia
- Knock-down reagent: long dsRNA against Drosophila genes, 0.25 µg dsRNA per well of a 384-well plate
- Timing: 5 days
- Treatment: cells persistently infected with Wolbachia before knock-down; no added drug
- Read-out: 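Imaged fluorescence in situ signal for Wolbachia 23S rRNA per DAPI-counted host cell, given as a robust z-score within each plate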
- Reading the numbers: Wolbachia per cell robust z: higher = more Wolbachia per host cell than the plate typical
- Rule for the call: 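Hit when robust z is 1.5 or more, or -1.5 or less, in at least two of three replicates; excludes dsRNAs with several or no targets, genes not expressed in JW18 and well A1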
In all, the deposit lists about 24,000 reagents; shown is a random part of those that have a named target and a result. Of all reagents, about 1,210 (5%) got an active call. 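Inactive calls also include excluded dsRNAs with several or no targets, genes unexpressed in JW18, and well A1, regardless of score.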 A number with no mark means an inactive call. The numbers tell different reagents against one gene apart. A plus sign joins genes that one reagent is predicted to hit.

gene	reagent	Wolbachia per cell robust z, rep 1	Wolbachia per cell robust z, rep 2	Wolbachia per cell robust z, rep 3
CG17108	1	-1.23	-0.676	-0.803
CG17108	2	0.833	0.958	-0.307
CG17108	3	-1.36	-1.24	-2.36
CG31792	1	0.356	1.26	-7.34
Ir92a	1	0.124	-6.12	-1.27
CG8736	1	0.081	0.787	1.17
CG8736	2	-3.93	0.956	0.815
CG7296	1	-1.19	-1.5	-0.718
CG7296	2	-1.05	0.238	-1.42
CG7296	3	-0.857	0.235	-0.654
CG32365	1	1.01	-0.412	-0.386
CG3699	1	-0.87	-0.68	-1.12
CG3699	2	-4.57	-0.701	0.435
Ttd14	1	0.633 (active)	-6.12	-2.47
Ttd14	2	-0.211	-0.227	0.0785
Hf + OS9	1	-0.0476	0.262	-0.269
CG30056	1	0.811	0.707	-0.174
Cyp6a8	1	-0.0348	0.647	-0.686
Ir68a	1	-0.668	0.353	-2.78
Bmcp	1	-0.0227	-0.331	0.611
opm	1	-2.58	0.184	0.0877
opm	2	0.282	-0.736	0.0404
opm	3	0.948	1.2	2.71
CG17196	1	1.18	-2.21	-5.98
CG10209	1	0.631	-0.616	-1.44
squ	1	1.81	0.243	0.575
CG13995	1	0.888	0.539	0.349
CG13995	2	-0.468	-0.831	-0.0676
CG13995	3	0.707	-2.33	-0.179
CG13995	4	0.166	-0.297	-1.28
